Pooled drug test results. Numbers come from NIAID ChemDB, via PubChem.

Shared fields: whole-cell or culture tests; species: Hepatitis C virus; method: replicon; measure: EC50

a–b is a range or a potency band. Rows are shuffled and stem from different studies. ECn is the concentration giving n% inhibition of infection, replication or growth. Blank or dashed fields: not listed here.

smiles	strain or isolate	cell line	value
O=C(N/N=C/c1ccccc1OS(=O)(=O)c1ccc(C(F)(F)F)cc1)c1cccc2ccccc12		Huh7	<5 µM
CC(C)Oc1nc(N)nc2ccc(-c3ccc(NC(=O)C(C)C)cc3)nc12		Huh7	<0.3 µM
CNC(=O)c1c(-c2ccc(C(F)(F)F)cc2)oc2ccc(OC)cc12		Huh7	<10 µM
COC(=O)c1ccc2c(C3CCCCC3)c3n(c2c1)C=C(C#N)Cc1ccccc1-3		Huh7	0.01–1 µM
CNC(=O)c1c(-c2ccc(F)cc2)oc2cc(N3CCOCC3)c(O)cc12		Huh7	<10 µM
O=C(Cc1c(F)cccc1F)N/N=C/c1ccccc1OS(=O)(=O)c1ccc(C(F)(F)F)cc1		Huh7	<5 µM
O=C(O)c1ccc2c(C3CCCCC3)c3n(c2c1)C=C(C(=O)N1CCOCC1)Cc1ccncc1-3		Huh7	>10 µM
CCOc1ccccc1C(=O)N/N=C/c1ccccc1OS(=O)(=O)c1ccc(C(F)(F)F)cc1		Huh7	>50 µM
Nc1ncc(-c2ccc3nc(NCc4ccc(S(N)(=O)=O)cc4)nc(NCC(F)(F)F)c3n2)s1			<0.1 µM
CN(C)S(=O)(=O)NC(=O)c1ccc2c(C3CCCCC3)c3n(c2c1)CCCc1ncccc1-3		Huh7	0.01–1 µM
O=C(Cc1ccc(Br)cc1)N/N=C/c1ccccc1OS(=O)(=O)c1ccc(C(F)(F)F)cc1		Huh7	<5 µM
Cn1cnc(S(=O)(=O)NC(=O)c2ccc3c(C4CCCCC4)c4n(c3c2)CCCc2ccccc2-4)c1		Huh7	1–10 µM
CNC(=O)c1c(-c2ccc(N)cc2)oc2ccc(OC(C)C)cc12		Huh7	<30 µM
COc1ccc(CC(=O)N/N=C/c2ccccc2OS(=O)(=O)c2ccc(C(F)(F)F)cc2)cc1		Huh7	<5 µM
COC(=O)/C=C/c1ccc(NC(=O)C2(NC(=O)c3ccc4c(C5CCCCC5)c5n(c4c3)CC(=O)Cc3ncccc3-5)CCCC2)cc1		Huh7	0.01–1 µM
O=C(N/N=C/c1ccccc1OS(=O)(=O)c1ccc(C(F)(F)F)cc1)c1cc(Cl)ccc1Cl		Huh7	<5 µM
CNC(=O)c1c(-c2ccc(F)cc2)oc2cc(N(C3CCCC3)S(C)(=O)=O)c(OC(C)C)cc12		Huh7	<1 µM
CC(C)(CN1CCCC1)NC(=O)c1ccc(-c2ccc3nc(NCc4ccc(S(N)(=O)=O)cc4)nc(NCC(F)(F)F)c3n2)cc1			<0.1 µM
O=C(Cc1cccc(N2CCCC2)c1)N/N=C/c1ccccc1OS(=O)(=O)c1ccc(C(F)(F)F)cc1		Huh7	5–50 µM
NC(=O)c1ccc(-c2ccc3nc(NCc4ccc(S(N)(=O)=O)cc4)nc(C4CC4)c3n2)cc1			<0.1 µM
NC(=O)COc1ccc2c(c1)S(=O)(=O)N=C(c1c(O)c3cc(F)ccc3n(CCC3CC3)c1=O)N2	1a 33776		0.061 µM
CCOc1nc(NCc2ccc(S(N)(=O)=O)cc2)nc2ccc(-c3ccc(NC(=O)[C@@H](N)[C@H](C)O)cc3)nc12			<0.1 µM
COc1cccc(CC(=O)N/N=C/c2cc(F)ccc2OS(=O)(=O)c2ccc(C)cc2)c1		Huh7	<5 µM
CC(C)NC(=O)c1ccc(-c2ccc3nc(N)nc(OC(C)C)c3n2)cc1		Huh7	<0.3 µM
COc1cccc(CC(=O)N/N=C/c2ccccc2OS(=O)(=O)c2ccc(Oc3ccccc3)cc2)c1		Huh7	>50 µM
CC(C)Oc1nc(N)nc2ccc(-c3ccc(C(=O)NC(C)(C)C)cc3)nc12		Huh7	0.3–1 µM
CCOc1ccc2oc(-c3ccc(Cl)s3)c(C(=O)NC)c2c1		Huh7	<10 µM
Nc1cnc(-c2ccc3nc(NCc4ccc(S(N)(=O)=O)cc4)nc(NCC(F)(F)F)c3n2)cn1			<0.1 µM
CNC(=O)c1c(-c2ccc(F)cc2)oc2cc(S(=O)(=O)NC3CC3)c(OC(C)C)cc12		Huh7	<10 µM
CC(C)(C)OC(=O)N1CCC(NS(=O)(=O)c2cc(-c3ccc4nc(NCc5ccc(S(N)(=O)=O)cc5)nc(NCC(F)(F)F)c4n3)ccc2Cl)CC1			<0.1 µM
COc1cc(CNC(=O)c2ccc3c(C4CCCCC4)c4n(c3c2)CC(C(=O)N2CCOCC2)=Cc2ccccc2-4)ccc1O		Huh7	0.01–1 µM

The first 2 rows once more:

O=C(N/N=C/c1ccccc1OS(=O)(=O)c1ccc(C(F)(F)F)cc1)c1cccc2ccccc12 ; cell line: Huh7 ; value: <5 µM
CC(C)Oc1nc(N)nc2ccc(-c3ccc(NC(=O)C(C)C)cc3)nc12 ; cell line: Huh7 ; value: <0.3 µM